The exact form of at least one protein or probe is not confirmed.
Tests used:
[1] = system: PthA6-His (Xanthomonas citri subsp. citri strain Xcc003); assay: EMSA; settings: poly dI-dC, unlabeled competitor 1x-800x; EMSA Binding Buffer (composition, salt and pH not stated) with poly dI-dC, 25 °C 25 min; 10% native PAGE at 4 °C, 100 V, 1.5 h; recombinant protein; protein details: His (N-terminal, pET28a); label: Cy5
[2] = system: PthA5-His (Xanthomonas citri subsp. citri strain Xcc086); assay: EMSA; settings: poly dI-dC, unlabeled competitor 1x-800x; EMSA Binding Buffer (composition, salt and pH not stated) with poly dI-dC, 25 °C 25 min; 10% native PAGE at 4 °C, 100 V, 1.5 h; recombinant protein; protein details: His (N-terminal, pET28a); label: Cy5

TATATACATACACACACACACACACACACATAT (double strand) [ProCsGRAS9]
binding result [1]: binds | binding result [2]: binds

From paper PMC11907795
